Assay results from patent US20070059799A1.

Target: HLA-A*6802 (Human)
Experiment: competition with 125I-labeled probe peptide for purified HLA, gel filtration
Settings: remark: other sources report otherwise

IC50: 2.35 µM
Binder: VLLDYQGMLPV (modifications not checked) [HBV ENV 259 peptide 1147.14 (…)]
